Experimental findings from US5223411A, “Nonionic surfactants having a carbamoyl group and process for treatment of a proteins containing medium using the same” (Centre National de la Recherche Scientifique (CNRS), priority 1990, dated 1993) are described below.

The series has as its system Spiroplasma melliferum B88 membrane. The experiment in a line: Membrane protein extraction with detergents, spiroplasmal membrane. The settings on record: concentrations below the CMC.

As to `CCCCCCCNC(=O)OC[C@H]1O[C@H](OC)[C@H](O)[C@@H](O)[C@@H]1O` [HECAMEG, 6-0 (N-Heptylcarbamoyl) methyl α-D-glucopyranoside], the “membrane protein extraction below the CMC” value is “inefficient”.
